Here are results for 28 compounds from PubChem BioAssay AID602313 (National Center for Advancing Translational Sciences (NCATS), 2012).

This is a selection; strong and weak results do not stand in their true shares. Activity calls are given as the source filed them. The call rests on the fitted dose curve; in most records, active means well fitted inhibition curve with a large enough effect; inconclusive means small, poorly fitted or top-dose-only effect; inactive means flat fitted curve, though single readings scatter.

This assay in a line: qHTS for Inhibitors of Vif-A3F Interactions: qHTS. Further: % of control where 0% means no effect; nearly all actives have a fitted effect of over 65% in size. The following applies: HeLa A3F-eYFP + Vif (tagged APOBEC3F with the HIV-1 protein that degrades it), YFP fluorescence increase; at 46.1 µM (top of the series). The text has this: The recent discovery and characterization of host restriction factors, which provide a potent defense to invading retroviruses, has provided new targets for antiviral drug development. APOBEC3G (A3G) and APOBEC3F (A3F) are potent cytidine deaminases that block HIV-1 replication; HIV-1 expresses the Vif protein, which counteracts A3G and A3F by binding to them and inducing their proteasomal degradation. The Vif-A3G and Vif-A3F interactions provide two potential targets for development of small molecules which can interfere with the ability of Vif to degrade A3G or A3F. […] To identify inhibitors that can interfere with Vif mediated degradation of A3G and A3F, we have developed Hela cell lines that stably express A3G or A3F tagged with eYFP at the C-terminal end (A3G-eYFP or A3F-eYFP, respectively) and Vif. In the absence of an inhibitor, Vif induces degradation of A3G-eYFP and A3F-eYFP, and the cells are not fluorescent. In the presence of an inhibitor, it is expected that Vif will be unable to degrade A3G-eYFP and/or A3F-eYFP, resulting in an increase in yellow fluorescence. In this assays Vif A3F was screened against the Molecular Library Small Molecule Repository (MLSMR). NIH Chemical Genomics Center [NCGC] NIH Molecular Libraries Probe Centers Network [MLPCN] MLPCN Grant: MH093245 Assay Submitter (PI): Vinay Pathak, National Cancer Institute
5 uL of 700 cells/well of A3F-YFP cells are dispensed into black, clear bottom plates. The plates are incubated overnight at 37 deg C. 23 nL of compounds are added by pintool. The plates are incubated overnight at 37 deg C and then read on the TTP Acumen (Ex 488/ Em 500-530).
(In general: Quantitative high-throughput screening tests each substance at several concentrations.)
For the compound `CCc1ccc(OP(C)(=O)O)cc1`, the activity, negative = active was inactive: 4.45%.

For the compound `COc1ccccc1OP(C)(=O)Nc1ccc(C)cc1C` (stereo not drawn), the activity, negative = active is inactive: 5.32%. Consider `CP(=O)(Nc1ccccn1)Oc1ccccc1` (stereo not drawn), for which the activity, negative = active is inactive: 2.62%. For `Cc1c(NP(C)(=O)Oc2ccc(C(C)C)cc2)c(=O)n(-c2ccccc2)n1C` (stereo not drawn) the value was inactive: 2.7%. For `O=[N+]([O-])c1cc([N+](=O)[O-])c(Nc2ccccn2)c([N+](=O)[O-])c1` the value was inactive: 0.217%; for `CN(C)CCOC(=O)C(O)(c1ccccc1)C1CCCC1` (stereo not drawn), inactive: 4.82%; for `COc1ccc(OP(C)(=O)Nc2ccccn2)cc1` (stereo not drawn), inactive: -7.66%. For `COc1ccccc1OP(C)(=O)Nc1ccc(Br)cc1` (stereo not drawn) the value was inactive: 4.64%.

On to `CP(=O)(Nc1ccc(Cl)cc1Cl)Oc1ccccc1` (stereo not drawn), for which the activity, negative = active is inactive: 8.47%.

On to `CCCCCCCCCCCCCCCC1C[N+](C)(C)CCOP(C)(=O)O1` (stereo not drawn), for which the activity, negative = active was inactive: -0.798%. In the case of `CP(=O)(OCCOc1ccccc1)OCCOc1ccccc1`, the activity, negative = active is inactive: 0.847%. For `COc1ccc(OP(C)(=O)Nc2ccccc2Br)cc1` (stereo not drawn), the activity, negative = active is inactive: 0.806%. `COc1ccccc1OP(C)(=O)Nc1ccc(C)c(C)c1` (stereo not drawn): the activity, negative = active was inactive: 2.08%.

Regarding `Cc1cc(C)cc(OP(C)(=O)Nc2cccc(C(F)(F)F)c2)c1` (stereo not drawn), the activity, negative = active was inactive: 3.75%.

On to `CP(=O)(OC12CC3CC(CC(C3)C1)C2)OC12CC3CC(CC(C3)C1)C2`, for which the activity, negative = active was inactive: 1.2%. For the compound `CCOC(=O)c1ccc(NP(C)(=O)Oc2ccc(Cl)cc2)cc1` (stereo not drawn), the activity, negative = active was inactive: -0.619%.

As to `Nc1ccc2c(ccc3cccnc32)n1.O=[N+]([O-])c1cc([N+](=O)[O-])c(O)c([N+](=O)[O-])c1`, the activity, negative = active was inactive: -2.04%. For `CN(C)C(=O)c1c([N+](=O)[O-])cc([N+](=O)[O-])cc1[N+](=O)[O-]` the value was inactive: 4.86%.

For the compound `CP(=O)(Nc1ccc(Cl)cc1)Oc1ccc(F)cc1` (stereo not drawn), the activity, negative = active is inactive: -7.5%. In the case of `COc1ccccc1OP(C)(=O)Nc1ccccc1Br` (stereo not drawn), the activity, negative = active was inactive: -4.35%. Regarding `CC(C)(C)c1ccc(OP(C)(=O)O)cc1`, the activity, negative = active was inactive: 0.725%. As for `CCc1ccc(OP(C)(=O)Nc2cccnc2)cc1` (stereo not drawn), the activity, negative = active was inactive: 1.66%. Turning to `CP(=O)(Oc1ccccc1)N1CCOC1=O` (stereo not drawn), the activity, negative = active is inactive: 0.0195%. Under `O=C(OCCCN1CCCC1)C(O)(c1ccccc1)C1CCCCC1` (stereo not drawn) stands inactive: -3.04%; under `COc1ccccc1OP(C)(=O)Nc1c(C)n(C)n(-c2ccccc2)c1=O` (stereo not drawn), inactive: -0.669%; under `COc1ccc(OP(C)(=O)Nc2ccc(Br)cc2)cc1` (stereo not drawn), inactive: -0.158%. Under `CCN(CC)CC(O)COC(=O)C(O)(c1ccccc1)C1CCCCC1` (stereo not drawn) stands inactive: 2.15%; under `Cc1ccccc1NP(C)(=O)Nc1ccccc1C`, inactive: 5.9%.
